Source: US20060073067A1, “Peracid-based large-area decontamination” (published 2006)

Tested on: Bacillus anthracis Vollum 1B
Experiment: Surviving CFU/ml of Bacillus anthracis Vollum 1B after exposure to PAB
Details: 15 minutes exposure to 65 mg/ml PAB; starting concentration 4×10^6 or 6×10^7 CFU/ml

Substance: acetyl peroxyborate
- decontamination effectiveness (surviving CFU/ml, FIGS. 2 and 3): effective decontaminant
